Assays:
[1] = biological target: T1, CODA1025 (R101F, L131G in SEQ ID NO: 33) (human (chimera of human α7-nAChR and …))
T1 chain: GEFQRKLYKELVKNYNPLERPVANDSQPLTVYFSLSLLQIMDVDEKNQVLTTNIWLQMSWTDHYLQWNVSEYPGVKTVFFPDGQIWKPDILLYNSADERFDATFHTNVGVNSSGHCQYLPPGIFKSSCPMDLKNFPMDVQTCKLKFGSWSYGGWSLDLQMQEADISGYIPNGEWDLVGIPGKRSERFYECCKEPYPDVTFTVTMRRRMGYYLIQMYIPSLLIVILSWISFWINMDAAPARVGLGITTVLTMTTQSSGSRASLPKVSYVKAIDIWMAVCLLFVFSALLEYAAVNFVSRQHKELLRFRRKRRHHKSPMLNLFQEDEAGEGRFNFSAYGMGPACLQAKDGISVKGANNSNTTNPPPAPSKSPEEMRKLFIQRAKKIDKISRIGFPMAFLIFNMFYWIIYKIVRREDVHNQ

[2] = biological target: T2, CODA805 (Y115D, S170T in SEQ ID NO: 33) (human (chimera of human α7-nAChR and …))
T2 chain: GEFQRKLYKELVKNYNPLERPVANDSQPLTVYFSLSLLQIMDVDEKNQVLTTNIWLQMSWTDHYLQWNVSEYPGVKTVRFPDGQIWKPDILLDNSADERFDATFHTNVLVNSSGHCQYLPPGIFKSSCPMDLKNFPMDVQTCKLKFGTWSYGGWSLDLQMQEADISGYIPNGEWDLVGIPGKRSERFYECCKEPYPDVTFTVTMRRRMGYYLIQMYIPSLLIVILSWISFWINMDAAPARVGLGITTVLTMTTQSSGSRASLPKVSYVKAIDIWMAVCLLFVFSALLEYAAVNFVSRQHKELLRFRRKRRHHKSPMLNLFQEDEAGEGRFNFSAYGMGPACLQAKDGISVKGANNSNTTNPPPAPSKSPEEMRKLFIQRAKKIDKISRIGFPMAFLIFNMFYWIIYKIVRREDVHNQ

[3] = biological target: T3, CODA1054 (R101M, L131F in SEQ ID NO: 33) (human (chimera of human α7-nAChR and …))
T3 chain: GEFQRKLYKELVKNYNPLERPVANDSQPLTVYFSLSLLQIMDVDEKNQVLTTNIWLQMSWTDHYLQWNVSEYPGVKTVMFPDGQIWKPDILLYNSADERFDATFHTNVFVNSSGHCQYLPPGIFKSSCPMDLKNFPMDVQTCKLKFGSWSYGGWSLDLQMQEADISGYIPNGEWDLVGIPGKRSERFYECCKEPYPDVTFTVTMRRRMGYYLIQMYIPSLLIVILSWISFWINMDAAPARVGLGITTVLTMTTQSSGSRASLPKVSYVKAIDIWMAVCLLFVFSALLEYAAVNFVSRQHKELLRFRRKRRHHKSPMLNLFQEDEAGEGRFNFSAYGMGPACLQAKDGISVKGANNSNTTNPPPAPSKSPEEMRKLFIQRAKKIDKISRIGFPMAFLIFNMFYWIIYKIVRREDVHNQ

[4] = biological target: T4, CODA806 (Y115D, L131Q in SEQ ID NO: 33) (human (chimera of human α7-nAChR and …))
T4 chain: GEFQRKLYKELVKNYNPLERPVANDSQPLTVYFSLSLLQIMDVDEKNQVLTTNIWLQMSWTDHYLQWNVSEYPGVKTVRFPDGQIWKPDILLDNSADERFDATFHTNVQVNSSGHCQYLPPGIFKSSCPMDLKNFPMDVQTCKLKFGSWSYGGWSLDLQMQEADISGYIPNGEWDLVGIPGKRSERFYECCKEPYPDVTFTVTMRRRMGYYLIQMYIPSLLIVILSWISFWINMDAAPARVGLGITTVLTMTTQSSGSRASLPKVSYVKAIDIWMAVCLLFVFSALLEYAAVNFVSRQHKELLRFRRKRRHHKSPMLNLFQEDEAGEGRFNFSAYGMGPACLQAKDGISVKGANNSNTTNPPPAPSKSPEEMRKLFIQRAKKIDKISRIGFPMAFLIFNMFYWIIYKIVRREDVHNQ

[5] = biological target: T5, CODA535 (L131T, S172D in SEQ ID NO: 33) (human (chimera of human α7-nAChR and …))
T5 chain: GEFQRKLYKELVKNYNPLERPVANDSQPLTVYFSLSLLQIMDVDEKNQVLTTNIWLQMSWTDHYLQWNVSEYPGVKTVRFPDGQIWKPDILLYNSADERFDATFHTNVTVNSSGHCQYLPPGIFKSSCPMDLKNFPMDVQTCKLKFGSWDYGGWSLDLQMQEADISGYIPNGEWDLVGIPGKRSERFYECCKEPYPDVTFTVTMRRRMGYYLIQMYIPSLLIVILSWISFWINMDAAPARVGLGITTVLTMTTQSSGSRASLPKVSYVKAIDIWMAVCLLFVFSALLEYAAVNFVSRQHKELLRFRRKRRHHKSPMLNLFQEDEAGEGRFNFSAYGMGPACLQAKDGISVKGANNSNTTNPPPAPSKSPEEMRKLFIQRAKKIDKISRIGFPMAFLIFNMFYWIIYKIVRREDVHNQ

[6] = biological target: T6, CODA534 (L131S, S172D in SEQ ID NO: 33) (human (chimera of human α7-nAChR and …))
T6 chain: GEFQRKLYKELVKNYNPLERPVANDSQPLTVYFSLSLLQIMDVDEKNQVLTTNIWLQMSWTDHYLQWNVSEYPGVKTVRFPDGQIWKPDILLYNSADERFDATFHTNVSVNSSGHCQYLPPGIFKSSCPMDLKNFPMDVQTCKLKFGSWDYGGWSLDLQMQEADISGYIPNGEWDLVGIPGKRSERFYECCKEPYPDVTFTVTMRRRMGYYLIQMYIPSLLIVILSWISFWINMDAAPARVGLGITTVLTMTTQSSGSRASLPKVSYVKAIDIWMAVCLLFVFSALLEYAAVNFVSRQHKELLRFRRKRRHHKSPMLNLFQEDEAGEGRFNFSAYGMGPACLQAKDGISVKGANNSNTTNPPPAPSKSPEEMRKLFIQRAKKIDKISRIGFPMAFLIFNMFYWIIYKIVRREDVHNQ

B1: α-bungarotoxin conjugated to Alexa Fluor 647 (ligand)
chain: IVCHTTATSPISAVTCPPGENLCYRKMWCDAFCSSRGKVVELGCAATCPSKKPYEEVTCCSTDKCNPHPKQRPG
Normalized AB % [1]: 0.46 ratio to SEQ ID NO: 33 control
Normalized AB MFI [2]: 0.93 ratio to SEQ ID NO: 33 control
Normalized AB % [3]: 0.82 ratio to SEQ ID NO: 33 control
Normalized AB MFI [4]: 2.04 ratio to SEQ ID NO: 33 control
Normalized AB MFI [5]: 0.72 ratio to SEQ ID NO: 33 control
Normalized AB % (CODA1072): 0.51 ratio to SEQ ID NO: 33 control
Normalized AB MFI (CODA1072): 0.69 ratio to SEQ ID NO: 33 control
Normalized AB % [6]: 0.44 ratio to SEQ ID NO: 33 control
